A short description of data set [1]: Drug accumulation in Chronic constriction injury rat muscle tissue at 15 mg/kg,IM administration and measured for 8 hrs by FITC-labeled fluorescence imaging analysis. As to conditions: in vivo; call rule not given here.
Data set [2] is described as follows: Drug accumulation in Chronic constriction injury rat muscle tissue at 15 mg/kg,IM administration and measured for 4 to 48 hrs by HPLC analysis. Conditions: in vivo.

As for `CC[C@H](C)[C@H](NC(=O)[C@H](CCCNC(=N)N)NC(=O)[C@H](CCCNC(=N)N)NC(=O)[C@H](Cc1ccc(O)cc1)NC(=O)[C@H](CCCNC(=N)N)NC(=O)[C@H](CCCNC(=N)N)NC(=O)[C@H](CCCNC(=N)N)NC(=O)[C@H](CCCNC(=N)N)NC(=O)[C@H](CC(=O)O)NC(=O)[C@H](Cc1ccc(O)cc1)NC(=O)[C@@H]1CCCN1C(=O)[C@H](CO)NC(=O)[C@H](CCCNC(=N)N)NC(=O)[C@H](Cc1ccc(O)cc1)NC(=O)[C@H](CCCNC(=N)N)NC(=O)CN)C(=O)N[C@H](C(=O)N[C@@H](CC(=O)O)C(N)=O)[C@@H](C)O`, the Drug uptake entry in data set [1] and in data set [2] was “Active” each time.
